Results of unrelated studies side by side (data: NIAID ChemDB).

Shared fields: growth or infection tests; agent: Mycobacterium avium

Lines come from different laboratories, so protocols vary.

{"compound": "O=c1[nH]c(=O)n([C@H]2CC[C@@H](CO)O2)cc1I", "read-out": "inhibition", "dose": "50 µg/mL", "strain": "ATCC 25291", "value": "0%"}
{"compound": "CCCCCCCc1ccc(NC(=O)NNC(=O)c2ccncc2)cc1", "read by": "broth dilution", "read-out": "MIC100", "setting": "14 d", "strain": "MY330/88", "value": "32 µM"}
{"compound": "N/C(=N\\NC(CC(=O)c1ccccc1)c1ccccn1)c1ccccn1", "read-out": "MIC50", "strain": "17 strains", "value": "32 µg/mL"}
{"compound": "CCCCCCCCOC(=O)c1cnccn1", "read-out": "MBC", "strain": "ATCC 25291", "value": "200 µg/mL"}
{"compound": "Cc1ccn2c(C(=O)NCc3ccc(N4CCC(c5ccc(C(F)(F)F)cc5)CC4)nc3)c(C)nc2c1", "read by": "resazurin", "read-out": "MIC", "strain": "101", "value": "<2 µM"}
{"compound": "O=C(NNC(=O)c1ccncc1)Nc1ccc(F)c(Cl)c1", "read by": "broth dilution", "read-out": "MIC100", "setting": "21 d", "strain": "MY330/88", "value": ">125 µM"}
{"compound": "O=c1[nH]c(=O)n([C@H]2C[C@H](O)[C@@H](CO)O2)cc1/C=C/Cl", "read-out": "inhibition", "dose": "50 µg/mL", "strain": "ATCC 25291", "value": "0%"}
{"compound": "CC[C@H]1OC(=O)[C@H](C)[C@@H](O[C@H]2C[C@@](C)(OC)[C@@H](O)[C@H](C)O2)[C@H](C)[C@@H](O[C@@H]2O[C@H](C)C[C@H](N(C)C)[C@H]2O)[C@](C)(OC)C[C@@H](C)C(=O)[C@H](C)[C@@H](O)[C@]1(C)O", "read-out": "MBC", "strain": "3010", "value": "32 µg/mL"}
{"compound": "O=c1[nH]c(=S)c(CO)cn1C1OC(CO)C(O)C1O", "read by": "resazurin", "read-out": "MIC58", "strain": "ATCC 25291", "value": "50 µg/mL"}
{"compound": "CCc1nc2ccc(Cl)cn2c1C(=O)NCc1ccc(N2CCC(c3ccc(OC(F)(F)F)cc3)CC2)cc1", "read by": "resazurin", "read-out": "MIC", "strain": "101", "value": "<2 µM"}
{"compound": "Cc1ccn2c(C(=O)NCc3ccc(O[C@H]4CCN(c5ccc(OC(F)(F)F)cc5)C4)c(F)c3)c(C)nc2c1", "read by": "fluorescence", "read-out": "inhibition", "dose": "0.5 µM", "value": "85%"}
{"compound": "Cc1ccn2c(C(=O)NCc3ccc(N4CCN(c5ccc(C(F)(F)F)cn5)CC4)c(F)c3)c(C)nc2c1", "read by": "resazurin", "read-out": "MIC", "strain": "A5", "value": ">1 µg/mL"}
{"compound": "O=C(NNC(=O)c1ccncc1)Nc1c(Cl)cc(Cl)cc1Cl", "read by": "broth dilution", "read-out": "MIC100", "setting": "14 d", "strain": "MY330/88", "value": ">125 µM"}
{"compound": "NC(=S)c1cnccn1", "read-out": "MBC", "strain": "ATCC 25291", "value": "200 µg/mL"}
{"compound": "C=CCS/C(N)=N\\N=C\\c1ccc(F)cc1", "read-out": "Geometric mean MIC", "strain": "Clinical isolates", "value": "10.45 µg/mL"}
{"compound": "CCc1cn(C2OC(CO)C(O)C2F)c(=O)[nH]c1=S", "read by": "resazurin", "read-out": "MIC35", "value": "100 µg/mL"}
{"compound": "Cc1ccc(C(=O)CC(N/N=C(\\N)c2ccccn2)c2cccnc2)cc1", "read-out": "MIC90", "strain": "17 strains", "value": "320 µg/mL"}
{"compound": "Cc1nc2ccc(Cl)cn2c1C(=O)NCc1ccc(N2CCC(c3ccc(OC(F)(F)F)cc3)CC2)cc1", "read by": "fluorescence", "read-out": "inhibition", "dose": "0.012 µM", "value": "85%"}
{"compound": "CCc1cn(C2OC(COC(C)=O)C(OC(C)=O)C2F)c(=O)[nH]c1=O", "read by": "resazurin", "read-out": "MIC35", "strain": "ATCC 25291", "value": "100 µg/mL"}
{"compound": "Cc1ccn2c(C(=O)NCc3ccc(N4CCC5(CC4)OCC(C)CO5)c(F)c3)c(C)nc2c1", "read by": "resazurin", "read-out": "MIC", "strain": "2151", "value": "2–10 µM"}
{"compound": "Clc1ccc(Nc2nnc(-c3ccncc3)o2)cc1Cl", "read by": "broth dilution", "read-out": "MIC100", "setting": "21 d", "strain": "MY330/88", "value": ">125 µM"}
{"compound": "N/C(=N\\NC(CC(=O)c1ccccc1)c1cccnc1)c1ccccn1", "read-out": "MIC90", "strain": "17 strains", "value": "320 µg/mL"}
{"compound": "CCc1nc2ccc(Cl)cn2c1C(=O)NCc1cc(F)c(Oc2ccc(Oc3ccc(OC(F)(F)F)cc3)cc2)c(F)c1.Cl", "read by": "fluorescence", "read-out": "inhibition", "dose": "0.018 µM", "value": "85%"}
{"compound": "O=c1[nH]c(=O)n([C@H]2C[C@H](O)[C@@H](CO)O2)cc1O", "read-out": "EC50", "strain": "ATCC 25291", "value": ">50 µg/mL"}
{"compound": "CCc1nc2ccc(Cl)cn2c1C(=O)NCc1ccc(N2CCN(c3ccc(OCC(F)(F)F)cc3)[C@@H](C)C2)c(F)c1.Cl", "read by": "fluorescence", "read-out": "inhibition", "dose": "0.022 µM", "value": "85%"}
{"compound": "Cc1ccc2nc(C)c(C(=O)NCc3ccc(C(F)(F)F)cc3)n2c1", "read by": "resazurin", "read-out": "MIC", "mutations": "Gentamicin-resistant", "strain": "104", "value": "0.0156 µg/mL"}
{"compound": "Cc1ccc(C(=O)CC(N/N=C(\\N)c2ccccn2)c2ccccn2)cc1", "read-out": "MIC50", "strain": "17 strains", "value": "80 µg/mL"}
{"compound": "O=C(NNC(=O)c1ccncc1)Nc1ccc(C(F)(F)F)cc1", "read by": "broth dilution", "read-out": "MIC100", "setting": "14 d", "strain": "MY330/88", "value": ">125 µM"}
{"compound": "CCc1nc2cc(F)ccn2c1C(=O)NCc1ccc(N2CCN(c3ccc(OC(F)(F)F)cc3F)[C@@H](C)C2)c(F)c1.Cl", "read by": "fluorescence", "read-out": "inhibition", "dose": "0.0076 µM", "value": "85%"}
{"compound": "O=c1[nH]c(=O)n([C@H]2C[C@H](F)[C@@H](CO)O2)cc1Br", "read-out": "EC50", "strain": "ATCC 25291", "value": ">50 µg/mL"}
{"compound": "O=C(NNC(=O)c1ccncc1)Nc1ccc(Br)c(C(F)(F)F)c1", "read by": "broth dilution", "read-out": "MIC100", "setting": "14 d", "strain": "MY330/88", "value": ">125 µM"}
{"compound": "N/C(=N\\NC(CC(=O)c1ccc(Cl)c(Cl)c1)c1ccccn1)c1ccccn1", "read-out": "MIC50", "strain": "17 strains", "value": "16 µg/mL"}
{"compound": "O=C(NNC(=O)c1ccncc1)Nc1cc(Cl)cc(Cl)c1", "read by": "broth dilution", "read-out": "MIC100", "setting": "21 d", "strain": "MY330/88", "value": "125 µM"}
{"compound": "Cc1cn2c(C(=O)NCc3ccc(Oc4ccc(C(F)(F)F)cc4)cc3)c(C)nc2s1", "read by": "resazurin", "read-out": "MIC", "strain": "2151", "value": "<2 µM"}
{"compound": "CCc1nc2ccc(Cl)cn2c1C(=O)NCc1cc(F)c(N2CCN(c3ccc(OC(F)(F)F)cc3)[C@@H](C)C2)c(F)c1.Cl", "read by": "fluorescence", "read-out": "inhibition", "dose": "0.0055 µM", "value": "85%"}
{"compound": "NNC(=O)c1ccncc1", "read-out": "MBC", "strain": "3350-4", "value": "80 µg/mL"}
{"compound": "N/C(=N\\NC(CC(=O)c1ccc(Cl)cc1)c1ccncc1)c1ccccn1", "read-out": "MIC50", "strain": "17 strains", "value": "16 µg/mL"}

3 of the rows above, restated:

compound | read by | read-out | dose | setting | mutations | strain | value
Cc1nc2ccc(Cl)cn2c1C(=O)NCc1ccc(N2CCC(c3ccc(OC(F)(F)F)cc3)CC2)cc1 | fluorescence | inhibition | 0.012 µM | - | - | - | 85%
O=c1[nH]c(=O)n([C@H]2C[C@H](O)[C@@H](CO)O2)cc1O | - | EC50 | - | - | - | ATCC 25291 | >50 µg/mL
CCc1cn(C2OC(COC(C)=O)C(OC(C)=O)C2F)c(=O)[nH]c1=O | resazurin | MIC35 | - | - | - | ATCC 25291 | 100 µg/mL

ECn: concentration that inhibits the pathogen or its effect by n%. Two numbers with a dash give a range or band. Blank or dashed fields: not listed here. Percent inhibition refers to the dose given; in toxicity tests it is the harm to the cells. A number after MIC or MFC names an inhibition level or a share of isolates.